Laboratory results reported in patent EP1261587B1, “STILBENE DERIVATIVES, THEIR PREPARATION AND THEIR USE AS ANTIVIRAL AGENTS” (priority 1999, dated 2001).

Sequences of proteins named here, by UniProt entry; tags and fusion partners are left off. A change or cut given only in a name is not applied to a line headed by its entry.
UniProt P04608: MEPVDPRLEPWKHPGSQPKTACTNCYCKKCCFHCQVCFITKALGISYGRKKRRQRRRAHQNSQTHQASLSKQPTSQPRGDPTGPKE

Biological target: T1, Tat-TAR complex (recombinant Tat, synthetic TAR duplex) (Human immunodeficiency virus type 1 group M subtype B, UniProt P04608)
T1 construct: purchased Medical Research Council (MRC), Cambridge, U.K
Test: competition Tat-TAR gel-shift assay
Format: binding, HIV-1
Details: concentration giving 50 % decrease in intensity of the retarded band (Tat-TAR complex); 20 nM recombinant Tat; read-out: CD50 (the source's name)
Excerpt: The in vitro inhibition of the interaction between Tat and TAR can be shown by a competition Tat-TAR gel-shift assay. Through binding of the protein (recombinant Tat, Medical Research Council (MRC), Cambridge, U.K. - for the sequence of recombinant Tat see Churcher et al., J. Mol. Biol. 230, 90-110 (1993)) to the RNA (synthetic TAR duplex, Genset, Paris, France; for the sequence see Hamy et al., J. Mol. Biol. 230, 111-123 (1993)), the overall size and the charge/weight ratio of the formed duplex are changed, so that electrophoretic migration through a native polyacrylamide gel is affected. By radioactive labelling of the RNA and subsequent autoradiography, free RNA and complexes can be discriminated based on their relative positions in the gel (Hamy et al., J. Mol. Biol. 230, 111-123 (1993)). If the binding reaction with a test substance is able to prevent the protein binding to the radiolabelled RNA, this competition for binding can be visualized on the autoradiography as a decreased intensity of the retarded band. In more detail, compounds of the formula I are tested as follows: […]

“N,N'-Bis(trans-4-{2-[4-(3-methyl-5-oxo-4-(o-carboxyphenylazo)-4,5-dihydro-1.H.-pyrazol-1-yl)-2-sulfo-phenyl]-vinyl}-2-sulfophenyl)-urea copper complex [Example 6]” was tested. Which pIC50 did it give?
Its pIC50 is 6.70.

pIC50: −log10 of the molar value.
